# Patent US4584132A, “1-(N-phosphinylcarbamoyl) β-lactam antibacterial agents” (dated 1986)
# Experiments:
# Assay in all cases: minimum inhibitory concentration, microdilution broth method
# [1] = tested on: E. coli 257
# [2] = tested on: K. pneumoniae A
# [3] = tested on: P. vulgaris 503-1136
# [4] = tested on: S. Pyoenes 503-782
# [5] = tested on: P. aeruginosa Stone 130
# [6] = tested on: E. coli 48
# [7] = tested on: S. aureus Smith
# [8] = tested on: P. vulgaris ATCC 6380
# [9] = tested on: E. cloacae 9570A
# [10] = tested on: P. aeruginosa 503-56
# [11] = tested on: P. mirabilis 190
# [12] = tested on: S. marcescens SM
smiles,measurement,setting,value
COP(=O)(NC(=O)N1C[C@H](NC(=O)Cc2ccccc2)C1=O)OC,Minimum Inhibitory Concentration,[1],32 µg/mL
same,Minimum Inhibitory Concentration,[2],64 µg/mL
same,Minimum Inhibitory Concentration,[3],16 µg/mL
same,Minimum Inhibitory Concentration,[4],> 128 µg/mL
same,Minimum Inhibitory Concentration,[5],> 128 µg/mL
same,Minimum Inhibitory Concentration,[6],32 µg/mL
same,Minimum Inhibitory Concentration,[7],16 µg/mL
same,Minimum Inhibitory Concentration,[8],16 µg/mL
same,Minimum Inhibitory Concentration,[9],64 µg/mL
same,Minimum Inhibitory Concentration,[10],> 128 µg/mL
same,Minimum Inhibitory Concentration,[11],16 µg/mL
same,Minimum Inhibitory Concentration,[12],32 µg/mL
